From patent publication US20210403443A1, “SUBSTITUTED 1,2,4-OXADIAZOLE, ITS APPLICATION AND A PHARMACEUTICAL PREPARATION COMPRISING IT” (SVENOX PHARMACEUTICALS LLC, priority 2018, published 2021)
Values after ≈ are worked out from the molar mass of the structure shown.

Key:
Format in all cases: cell-based
[1] = tested on: M. tuberculosis MDR strain Praha 1; experiment: MIC micromethod in Sula's medium, multiresistant strain Praha 1; settings: strain Praha 1, after 14 days of incubation
[2] = tested on: M. tuberculosis MDR strain Praha 4; experiment: MIC micromethod in Sula's medium, multiresistant strain Praha 4; settings: strain Praha 4, after 14 days of incubation
[3] = tested on: M. tuberculosis MDR strain 8666/2010; experiment: MIC micromethod in Sula's medium, multiresistant strain 8666/2010; settings: strain 8666/2010, after 14 days of incubation
[4] = tested on: M. tuberculosis MDR strain 234/2005; experiment: MIC micromethod in Sula's medium, multiresistant strain 234/2005; settings: strain 234/2005, after 14 days of incubation
[5] = tested on: Mycobacterium tuberculosis CNCTC My 331/88; experiment: MIC micromethod in Sula's medium, collection strain M. tuberculosis
[6] = tested on: M. tuberculosis MDR strain Praha 131; experiment: MIC micromethod in Sula's medium, multiresistant strain Praha 131; settings: strain Praha 131, after 14 days of incubation
[7] = tested on: M. tuberculosis MDR strain 9449/2007; experiment: MIC micromethod in Sula's medium, multiresistant strain 9449/2007; settings: strain 9449/2007, after 14 days of incubation
[8] = tested on: M. tuberculosis MDR strain 7357/1998; experiment: MIC micromethod in Sula's medium, multiresistant strain 7357/1998; settings: strain 7357/1998, after 14 days of incubation
[9] = tested on: M. kansasii CNCTC My 235/80; experiment: MIC micromethod in Sula's medium, atypical strain M. kansasii

## O=[N+]([O-])c1ccc(-c2noc(SCc3cc([N+](=O)[O-])cc([N+](=O)[O-])c3)n2)cc1
[1]
  Minimum inhibiting concentration of substances with general formula I: 1 µmol/L
[2]
  Minimum inhibiting concentration of substances with general formula I: 0.5 µmol/L
[3]
  Minimum inhibiting concentration of substances with general formula I: 0.5 µmol/L
[4]
  Minimum inhibiting concentration of substances with general formula I: 0.5 µmol/L
[5]; M. tuberculosis My 331/88, after 14 days of incubation
  Minimum inhibiting concentration: 0.5 µmol/L (≈ 0.202 µg/mL)
[5]; M. tuberculosis My 331/88, after 21 days of incubation
  Minimum inhibiting concentration: 1 µmol/L (≈ 0.403 µg/mL)
[6]
  Minimum inhibiting concentration of substances with general formula I: 1 µmol/L
[7]
  Minimum inhibiting concentration of substances with general formula I: 0.5 µmol/L
[8]
  Minimum inhibiting concentration of substances with general formula I: 1 µmol/L
[9]; M. kansasii My 235/80, after 7 days of incubation
  Minimum inhibiting concentration: 2 µmol/L (≈ 0.807 µg/mL)
[9]; M. kansasii My 235/80, after 14 days of incubation
  Minimum inhibiting concentration: 2 µmol/L (≈ 0.807 µg/mL)
[9]; M. kansasii My 235/80, after 21 days of incubation
  Minimum inhibiting concentration: 4 µmol/L (≈ 1.61 µg/mL)
